The source of these data is paper PMC12658140.

This assay deals with H3N8 A/mallard/Alberta/362/2017 HA ectodomain (influenza A virus H3N8 A/mallard/Alberta/362/2017). Put plainly: cryo-EM structure.

Usually stoichiometry N stands for a count of units in the complex or per binding partner. Regarding “H3N8 A/mallard/Alberta/362/2017 HA ectodomain (domain or fragment)”, the stoichiometry N was determined as 3.
